In patent publication US5089479A, “Adhesion of Mycoplasma pneumoniae and Mycoplasma hominus to sulfatide” (priority 1988, dated 1992):

Tested on: M. pneumoniae
Test: M. pneumoniae adhesion to immobilized glycoproteins adsorbed on plastic
Type: binding, Mycoplasma pneumoniae strain M129
Conditions: for M. pneumoniae adhesion to immobilized glycoprotein (in words): adsorbed on plastic
Experimental: Glycoproteins dissolved in 0.01 M sodium phosphate buffer, pH 7.4, containing 150 mM NaCl, 1 mM CaCl2, and 0.01% NaN3 were adsorbed onto plastic polyvinylchloride […] microtiter plates by incubation for 16 hours at 4° C. The unbound proteins were removed, and the wells were filled with tris-BSA and incubated for 30 minutes at room temperature. The wells were rinsed with RPMI1640 containing 25 mM HEPES, pH 7.3, and 1% bovine serum albumin. M. pneumoniae strain M129 labelled with [^3 H]-palmitate were dispersed in RPMI-BSA by passing four times through a 26 gauge needle, and 50 μl of the suspension was applied to the wells. After incubation for 60 minutes at 37° C., the wells were washed five times with saline and the labelled M. pneumoniae bound to the proteins were quantified by scintillation counting in Aquasol. […]
Adhesion of labelled M. pneumoniae to WiDr cells on glass cover slips was determined as described previously. For inhibition studies, dextran sulfate and 3'-sialyllactose were dissolved in RPMI-BSA and the pH was adjusted to 7.4 with NaOH. The inhibitors were added to wells containing washed cover slips with attached WiDr cells or blank cover slips preincubated in medium or tris-BSA. Labelled M. pneumoniae were added immediately and incubated with slow rocking for sixty minutes at 37° C. After the coverslips were washed by dipping six times in saline, bound M. pneumoniae were determined by scintillation counting in Aquasol. In FIG. 6, [^3 H]-labelled M. pneumoniae, 630,000 cpm/5×10^5 CCU, were incubated in microtiter wells coated in duplicate with laminin ( .circle. ) , fetuin (.largecircle.), hCG,, or transferrin (.quadrature.) at the indicated concentrations. After washing to remove the unbound organisms, the bound mycoplasma were determined by scintillation counting. Binding to uncoated wells was 3% of the applied radioactivity.
FIG. 7 illustrates the effect of neuraminidase treatment on M. pneumoniae binding to immobilized glycoproteins. Microtiter wells were coated with fetuin (circles), hCG (squares), or α-subunit of hCG (triangles) and treated for sixteen hours with 0.05 U/ml neuraminidase (Closed symbols) in sodium acetate buffer, pH 5.5, or buffer alone (open symbols). [^3 H]-labelled M. pneumoniae binding was determined as described above.
^1 Binding of [^3 H]-M. pneumoniae was determined to polyvinyl
chloride microtiter wells coated with 0.006 to 2 μg of the respective
proteins. Relative binding activities of the proteins were determined by
the amount of protein required to give half maximal binding of mycoplasma
and are expressed relative to fetuin which was assigned a value of 1.0.
Results are the mean values of 2 or 3 experiments.

| Substance | M. pneumoniae adhesion to immobilized glycoprotein (in words) | M. pneumoniae adhesion to immobilized glycoprotein (in words) (listed as o-subunit of hCG) | M. pneumoniae adhesion to immobilized glycoprotein (in words) (listed as α-subunit of hCG) | M. pneumoniae adhesion to immobilized glycoprotein (in words) (listed as human chorionic gonadotropin) | Relative binding activity (relative to fetuin = 1.0, from amount for half maximal binding, mean of 2 or 3 experiments) |
| --- | --- | --- | --- | --- | --- |
| hCG α-subunit: α-subunit of human chorionic gonadotropin | also promotes attachment | as active as the other glycoproteins | binds M. pneumoniae as well as the intact protein |  |  |
| hCG: human chorionic gonadotropin | dose dependent and saturable adhesion |  |  | promote dose-dependent and saturable adhesion | 0.7 |
